Reference: patent publication US20250325672A1 (priority 2020, published 2025)

B1: BCY19535 (peptide)
peptide: CPHPPGRGTCLLC
modifications: not checked
B2: BCY19536 (peptide)
peptide: CPYNAGTGTCLLC
modifications: not checked
B3: BCY19539 (peptide)
peptide: CPFPPGMGTCLLC
modifications: not checked
B4: BCY19541 (peptide)
peptide: CPHQPGFGTCLLC
modifications: not checked
B5: BCY19542 (peptide)
peptide: CPYSPGSGTCLLC
modifications: not checked
B6: BCY19544 (peptide)
peptide: CPWEAGKGTCLLC
modifications: not checked
B7: BCY19546 (peptide)
peptide: CPHMPGSGTCLLC
modifications: not checked
B8: BCY19547 (peptide)
peptide: CPYNKGEGTCLLC
modifications: not checked
B9: BCY19548 (peptide)
peptide: CPFKPGVGTCLLC
modifications: not checked

Target: Biotinylated SARS-CoV-2 (COVID-19) S protein RBD, His, Avitag (SARS-CoV-2), P0DTC2
Experiment: SPR, Biacore T200, geomean

Row | Binder | Kd
1 | B1 | 0.565 µM
2 | B2 | 7.57 µM
3 | B3 | 2.08 µM
4 | B4 | 2.17 µM
5 | B5 | 1.95 µM
6 | B6 | 6.65 µM
7 | B7 | 3.52 µM
8 | B8 | 9.16 µM
9 | B9 | 2.99 µM
